Measured values published in paper PMC10715591, “EspB and HtpG interact with the type III-A CRISPR/Cas system of Mycobacterium tuberculosis” (Frontiers in Molecular Biosciences, 2023).

Target: T1, MtbHtpG (high-temperature protein G) (Mycobacterium tuberculosis H37Rv)
T1 construct: also called Chaperone htpG
Test: SPR
Conditions: both partners purified

B1: ESX-1 secretion-associated protein EspB (natural protein)
chain: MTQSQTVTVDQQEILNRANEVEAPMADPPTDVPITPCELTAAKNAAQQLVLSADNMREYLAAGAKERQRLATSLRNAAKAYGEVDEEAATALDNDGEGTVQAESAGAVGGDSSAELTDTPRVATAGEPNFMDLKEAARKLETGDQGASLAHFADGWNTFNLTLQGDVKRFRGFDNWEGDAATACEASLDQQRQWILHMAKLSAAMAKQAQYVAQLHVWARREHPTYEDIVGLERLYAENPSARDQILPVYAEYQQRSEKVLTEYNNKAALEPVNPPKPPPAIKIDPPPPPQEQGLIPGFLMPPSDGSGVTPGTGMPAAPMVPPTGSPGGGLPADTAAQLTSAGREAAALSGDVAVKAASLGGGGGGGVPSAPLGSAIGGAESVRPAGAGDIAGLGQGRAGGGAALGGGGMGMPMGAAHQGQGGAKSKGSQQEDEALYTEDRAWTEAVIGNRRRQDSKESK
notes: also called Esx-1 secreted protein B
Kd: 8.88 nM
koff: 0.00199 s⁻¹
kon: 224000 M⁻¹ s⁻¹
